Anti-infective test results gathered from many reports (values: NIAID ChemDB through PubChem).

Common to all: whole-cell or culture tests; agent: Aspergillus niger

Neighbouring rows are from separate reports.

SMILES,read by,strain,measure,value
Clc1ccc(CO/N=C2/c3ccc(Cl)cc3OCC2n2cnnc2)cc1,-,ATCC 16401,MFC,64 µg/mL
O=C1CSC(N2N=C(c3ccc(O)cc3)CC2c2cc3ccccc3nc2Cl)=N1,-,MTCC 282,MIC100,500 µg/mL
CC1CCC(C(C)C)C(OC(=O)c2ccccc2[N+](=O)[O-])C1,-,-,MIC,6.76 µM
CC(=O)N1CCN(c2ccc(OC[C@H]3CO[C@](Cn4ccnc4)(c4ccc(Cl)cc4Cl)O3)cc2)CC1,agar,MTCC 282,MIC,≤3 µg/mL
C[C@H]1N(C(=O)c2ccc(C(F)(F)F)cc2)C[C@@H](O)O[C@@]1(Cn1cncn1)c1ccc(F)cc1F,-,Isolate 1,MIC,100 µg/mL
O=C(CSc1nnc(-c2ccc(N=Cc3cccs3)cc2)o1)Nc1ccccc1[N+](=O)[O-],broth dilution,MTCC 282,MIC,500 µg/mL
CCN=C(Nc1ccccc1OC)N(CC)c1nc2c(OC)cccc2s1,-,-,MIC,100–120 µg/mL
Brc1ccc(CO/N=C2/c3ccccc3OCC2n2cncn2)cc1,-,ATCC 16401,MFC,16 µg/mL
COc1cc(C)c2c(=O)cc(CC(C)=O)oc2c1C1O[C@@H](CO)[C@H](O)[C@@H](O)[C@@H]1OC(=O)/C=C\c1ccc(O)cc1,agar diffusion,ATCC 6275,MIC,1810 µM
Cc1ccccc1C(=O)OC1CC(C)CCC1C(C)C,-,-,MIC,11.48 µM
Cc1nn(-c2ccccc2)c2c1C(c1cccc([N+](=O)[O-])c1)c1c(nc(=O)[nH]c1N)O2,-,MTCC 282,MIC,500 µg/mL
O=C(CSc1nnc(-c2ccc(N=Cc3cccs3)cc2)o1)Nc1ccc(Cl)c(Cl)c1,broth dilution,MTCC 282,MIC,500 µg/mL
CC(=O)O[C@H]1CC[C@@]2(C)C(=CCC3C4CCC(C(=O)/C=C/c5ccc(F)cc5)[C@@]4(C)CCC32)C1,turbidity,MTCC 281,MIC,300 µg/mL
Cc1ccccc1NC(=O)CSc1nnc(-c2ccc(N=Cc3cccs3)cc2)o1,broth dilution,MTCC 282,MIC,100 µg/mL
CCn1sc(=Nc2ccccc2)n(CC)c1=Nc1ccccc1,-,-,MIC,80–100 µg/mL
Cn1c(=O)cc(Oc2nc(Nc3ccc(C#N)cc3)nc(Nc3nc4ccccc4s3)n2)c2ccccc21,agar,MTCC 2825,MIC,200 µg/mL
NC[C@H]1O[C@H](O[C@H]2[C@H](O)[C@@H](O[C@H]3O[C@H](CO)[C@@H](O)[C@H](N)[C@H]3O)[C@H](N)C[C@@H]2N)[C@H](O)[C@@H](O)[C@@H]1O,MTT / broth dilution,-,MIC,>50 µg/mL
Cc1ccc2nc(Nc3nc(Nc4ccc(C#N)cc4)nc(Oc4cc(=O)n(C)c5ccccc45)n3)sc2c1,agar,MTCC 2825,MIC,500 µg/mL
CCOC(=O)C(C#N)C(c1cc2cccc(C)c2n2nnnc12)P(=O)(OCC)OCC,agar diffusion,NCIM 545,MIC,10 µg/mL
COc1ccc(OC)c(C2SCC(=O)N2c2ccccn2)c1,agar,NCIM 742,MIC,65 µg/mL
CCn1sc(=Nc2ccc(OC)cc2)n(CC)c1=Nc1ccc(OC)cc1,-,-,MIC,40–60 µg/mL
O=C1CSC(N2N=C(c3cccc(F)c3)CC2c2cc3ccccc3nc2Cl)=N1,-,MTCC 282,MIC100,500 µg/mL
Cc1nn(-c2ccccc2)c2c1C(c1ccccc1Cl)C(C#N)=C(N)O2,-,MTCC 282,MIC,>1000 µg/mL
COc1ccc(C2=NN(C3=NC(=O)CS3)C(c3cc4ccccc4nc3Cl)C2)cc1,-,MTCC 282,MIC100,500 µg/mL
CC1CCC(C(C)C)C(OC(=O)CCl)C1,-,-,MIC,6.76 µM
Clc1ccc(CO/N=C2/c3ccc(Cl)cc3OCC2n2cncn2)c(Cl)c1,-,ATCC 16401,MFC,64 µg/mL
CCN(CC)c1ccc(/C=N/NC(=O)c2ccccc2F)c(O)c1,MTT / broth dilution,-,MIC,>50 µg/mL
N#Cc1ccc(Nc2nc(Oc3cccc4cccnc34)nc(N3CCN(c4ccccc4)CC3)n2)cc1C(F)(F)F,agar,MTCC 282,MIC,100 µg/mL
CC1CCC(C(C)C)C(OC(=O)/C=C/c2ccc([N+](=O)[O-])cc2)C1,-,-,MIC,6.61 µM
N#Cc1ccc(Nc2nc(Oc3cccc4cccnc34)nc(N3CCN(c4ccccn4)CC3)n2)cc1C(F)(F)F,agar,MTCC 282,MIC,12.5 µg/mL
COc1cccc(C(=O)OC2CC(C)CCC2C(C)C)c1,-,-,MIC,7.76 µM
O=C(CSc1nnc(-c2ccc(N=Cc3cccs3)cc2)o1)Nc1ccccc1,broth dilution,MTCC 282,MIC,500 µg/mL
Cc1nn(-c2ccccc2)c2c1C(c1ccc(Cl)cc1)c1c(nc(=S)[nH]c1N)O2,-,MTCC 282,MIC,>1000 µg/mL
CCN=C(Nc1ccccc1)N(CC)c1nc2ccccc2s1,-,-,MIC,100–120 µg/mL
Cc1cccnc1N1C(=O)CSC1c1c(C)cccc1C,agar,NCIM 742,MIC,71 µg/mL
c1ccc(CO/N=C2\c3ccccc3OCC2n2cncn2)cc1,-,ATCC 16401,MIC,2 µg/mL
CCn1sc(=Nc2cccc(OC)c2)n(CC)c1=Nc1cccc(OC)c1,-,-,MIC,60–80 µg/mL
Cn1c(=O)cc(Oc2nc(Nc3ccc(C#N)cc3)nc(Sc3nnc(-c4ccncc4)o3)n2)c2ccccc21,agar,MTCC 2825,MIC,50 µg/mL
O=C1CSC(N2N=C(c3ccc(Cl)cc3)CC2c2cc3ccccc3nc2Cl)=N1,-,MTCC 282,MIC100,100 µg/mL
COc1ccc(NC(=O)CSc2nnc(-c3ccc(N=Cc4cccs4)cc3)o2)cc1,broth dilution,MTCC 282,MIC,1000 µg/mL
CC1CCC(C(C)C)C(OC(=O)c2ccccc2Cl)C1,-,-,MIC,7.94 µM
CC1=[N+](C)N(c2ccccc2)C(=O)C1Nc1nc(Nc2ccc(C#N)cc2)nc(Oc2cc(=O)n(C)c3ccccc23)n1,agar,MTCC 2825,MIC,200 µg/mL
O=C(CSc1nnc(-c2ccc(N=Cc3cccs3)cc2)o1)Nc1ccc([N+](=O)[O-])cc1,broth dilution,MTCC 282,MIC,250 µg/mL
Cc1cnc(N2C(=O)CSC2c2c(Cl)cccc2Cl)c(C)c1,agar,NCIM 742,MIC,42 µg/mL
Clc1ccc(CO/N=C2\c3ccccc3OCC2n2cncn2)cc1Cl,-,ATCC 16401,MFC,16 µg/mL
CC(C)N1CCN(c2nc(Nc3ccc(C#N)c(C(F)(F)F)c3)nc(Oc3cccc4cccnc34)n2)CC1,agar,MTCC 282,MIC,50 µg/mL
CCN=C(Nc1cccc(OC)c1)N(CC)c1nc2cc(OC)ccc2s1,-,-,MIC,80–100 µg/mL
Fc1ccccc1CO/N=C1/c2ccccc2OCC1n1cncn1,-,ATCC 16401,MIC,32 µg/mL
O=C1CSC(N2N=C(c3ccccc3O)CC2c2cc3ccccc3nc2Cl)=N1,-,MTCC 282,MIC100,1000 µg/mL
Cc1nn(-c2ccccc2)c2c1C(c1cccc([N+](=O)[O-])c1)c1c(nc(=S)[nH]c1N)O2,-,MTCC 282,MIC,1000 µg/mL
CC1CCC(C(C)C)C(OC(=O)/C=C/c2cccc([N+](=O)[O-])c2)C1,-,-,MIC,4.68 µM
Cc1nn(-c2ccccc2)c2c1C(c1ccc(Cl)cc1)c1c(nc(=O)[nH]c1N)O2,-,MTCC 282,MIC,>1000 µg/mL
CCN=C(Nc1ccc(C(C)=O)cc1)N(CC)c1nc2ccc(C(C)=O)cc2s1,-,-,MIC,100–120 µg/mL
CC1CCC(C(C)C)C(OC(=O)c2cccc([N+](=O)[O-])c2)C1,-,-,MIC,5.13 µM
C=CCSS(=O)CC=C,broth dilution,ATCC 16888,MIC90,500 µg/mL
Nc1ccc(C2SCC(=O)N2c2ccc(Cl)cc2)cc1,agar,NCIM 742,MIC,71 µg/mL
O=C1CSC(N2N=C(c3ccccc3[N+](=O)[O-])CC2c2cc3ccccc3nc2Cl)=N1,-,MTCC 282,MIC100,100 µg/mL
CC1CCC(C(C)C)C(OC(=O)c2ccccc2Br)C1,-,-,MIC,9.12 µM
Cn1c(=O)cc(Oc2nc(Nc3ccc(C#N)cc3)nc(Oc3cc(=O)n(C)c4ccccc34)n2)c2ccccc21,agar,MTCC 2825,MIC,100 µg/mL
CCCCCCCCCCSCC(O)C(=O)O,-,ATCC 16404,MIC,0.00553 µM
CC1(C)S[C@@H]2[C@H](NC(=O)Cc3ccccc3)C(=O)N2[C@H]1C(=O)O,-,ATCC 16404,MIC,200 µg/mL
CC(=O)O[C@H]1CC[C@@]2(C)C(=CCC3C4CCC(C(=O)/C=C/c5ccc(Cl)cc5Cl)[C@@]4(C)CCC32)C1,turbidity,MTCC 281,MIC,350 µg/mL

The last 3 rows once more:

SMILES	read by	strain	measure	value
CCCCCCCCCCSCC(O)C(=O)O	-	ATCC 16404	MIC	0.00553 µM
CC1(C)S[C@@H]2[C@H](NC(=O)Cc3ccccc3)C(=O)N2[C@H]1C(=O)O	-	ATCC 16404	MIC	200 µg/mL
CC(=O)O[C@H]1CC[C@@]2(C)C(=CCC3C4CCC(C(=O)/C=C/c5ccc(Cl)cc5Cl)[C@@]4(C)CCC32)C1	turbidity	MTCC 281	MIC	350 µg/mL

Two numbers with a dash give a range or band. Blank or dashed fields: not listed here. MIC50, MIC90 and the like: level of inhibition, or share of isolates inhibited.